Results: article PMC12589655, “Conformational dynamics, RNA binding, and phase separation regulate the multifunctionality of rabies virus P protein” (2025)

Columns and labels:
[1] = test system: CVS P3-D289N, recombinant, rabies virus, strain CVS-11, P22363 53-297; assay: cross-linking
[2] = test system: CVS P3-KRm, recombinant (K214A/R260A), rabies virus, strain CVS-11, P22363 53-297; assay: cross-linking

Substance	result [1]	result [2]
CVS P3-D289N, recombinant	binds	–
CVS P3-KRm, recombinant (K214A/R260A) K214A | R260A	–	binds
